# For at least one entry, the source does not settle the construct or the ends of the probe.
# System: GST-SLBP (human)
# Test: EMSA
# Settings: recombinant protein, protein details: N-terminal GST, label: 3' biotin
Sequence,binding result (strongest among the truncated probes),binding result
AUGUCGUAUACAGGGCUUU [-1 PRF RNA truncated mutant I],binds,–
GUGCGGCACAGGCACUAGUACUG [-1 PRF RNA truncated mutant III],–,binds
CACAAUCGUUUUUAAACG [-1 PRF RNA truncated mutant II],–,binds

# From publication PMC12166091
